How the values were obtained:
NL43 wild type virus = settings: read-out: EC50 (P4) (WT), P4 CCR5-luc cells, comparison compounds
P4 CCR5-luc cells = test: Toxicity, luciferase assay in P4 CCR5-luc cells; settings: comparison compounds

Substance: D-dioxolane-thymine 5′-(phenyl ethoxy-alanyl phosphate)
- EC50 (NL43 wild type virus): 870 nM
- Toxicity (Luciferase, 6d) (P4 CCR5-luc cells): >100

Substance: D-dioxolane-thymine 5′-(phenyl ethoxy-phenylalanyl phosphate)
- EC50 (NL43 wild type virus): > 100000 nM
- Toxicity (Luciferase, 6d) (P4 CCR5-luc cells): >100
